This experiment concerns the target human insulin receptor, B isoform (human, UniProt P06213 28-758; P06213 763-1382).

B1: Con-Ins T2 (ligand)
chain 1: GVVEHCCKRACSNAEFMQFC
chain 2: NSDTPWNRCGSQITDSYRELCPH
As for B1, the IC50 – broadly, the midpoint of a concentration-inhibition curve – was 31.8 nM.

B2: Con-Ins G3 (ligand)
chain 1: GIVEVCCDNPCTVATLRTFCH
chain 2: NSDTPKHRCGSELADQYVQLCH
For the molecule B2, the 50% inhibitory concentration (IC50) worked out at 46.8 nM.

B3: Con-Ins G1 (ligand)
chain 1: GVVEHCCHRPCSNAEFKKYC
chain 2: TFDTPKHRCGSEITNSYMDLCYR
Molecule B3 registered an IC50 of 11 nM.

These data come from PMC6372279 (2019).
